Reference: ChEMBL document CHEMBL1128695, “Synthesis and antiviral activity of 8-aza analogs of chiral [2-(phosphonomethoxy) propyl]guanines” (J Med Chem, 1995)

Tests used:
[1] = Selectivity Index measured as the ratio of CC50 to that of EC50(HIV-1) values.; assay type: functional
Procedure, shortened: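 HIV-1 IIIB (100 CCID50, MOI 0.01) was added to 1×10^4 MT-4 cells per well in RPMI/10% FCS with serial compound dilutions, made from a 100 mg/mL DMSO stock. After 4 days at 37 °C, viable cells were counted by MTT. The EC50 is 50% protection from virus-induced CPE. The CC50 is a 50% viability loss in mock-infected MT-4 cells, run in parallel for 4 days. SI = CC50/EC50.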

[2] = Selectivity Index measured as the ratio of CC50 to that of EC50(HIV-2) values.; assay type: functional
Procedure, shortened: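 HIV-2 ROD (100 CCID50, MOI 0.01) infected 1×10^4 MT-4 cells per well in RPMI/10% FCS containing compound dilutions, made from a 100 mg/mL DMSO stock. After 8 days at 37 °C, MTT read viability. The EC50 gives 50% protection against CPE. The CC50 comes from parallel mock-infected MT-4 cultures by MTT over 4 days. The index is the CC50/EC50 ratio.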

Cc1cn([C@H]2C[C@H](N=[N+]=[N-])[C@@H](CO)O2)c(=O)[nH]c1=O [ZIDOVUDINE]
Selectivity index [1]: > 2000 | Selectivity index [2]: > 500
